Compound potency records, mixed from different reports. Data source: NIAID ChemDB in PubChem.

Common to all: tests in culture; agent: HIV-1; read-out: EC50

Conditions beyond the fields shown may differ between rows. An empty or dashed field is not shown. ECn is the concentration giving n% inhibition of infection, replication or growth.

| structure | strain or isolate | mutations | method | conditions | result |
|---|---|---|---|---|---|
| C[C@H](Cn1cnc2c(N)ncnc21)OCP(=O)(O)O | ETH2220 | - | p24 / ELISA | - | 0.72 µM |
| CC(C)(C)NC(=O)[C@@H]1CN(C(C)(C)c2cc3cnccc3o2)CCN1C[C@@H](O)C[C@@H](Cc1ccccc1)C(=O)N[C@H]1c2ccccc2C[C@H]1O | 4X (PR M46I L63P V82T I84V) Recombinant | PR-M46I L63P V82T I84V | - | - | <0.625 µM |
| CC=CCOc1cc(NC(=S)c2ccoc2C)ccc1OC | UC781-RS(RT-Y181C | RT-Y181C | - | - | 1.6 µM |
| CC(C)C[C@H](N)C(=O)O.[Na+] | NL4-3 | - | luciferase | - | 0.22 µM |
| Cc1cc(C)cc(C(=O)c2cc(Cl)ccc2OCCN2CCC(=O)NC2=O)c1 | - | Y181C | RT activity | pseudotyped | 1.5 µM |
| Cc1ccnc2c1NC(=O)c1cccnc1N2C1CC1 | NL4-3 | AMD3100-resistant | - | - | 0.06 µM |
| CC(C)(C)NC(=O)[C@@H]1CN(C(C)(C)c2cc3cnccc3o2)CCN1C[C@@H](O)C[C@@H](Cc1ccccc1)C(=O)N[C@H]1c2ccccc2OC[C@H]1O | K-60C (PR L10I S37N M46I I54V Q58E L63P I64V V77I V82F L90M I93L) | PR-L10I S37N M46I I54V Q58E L63P I64V V77I V82F L90M I93L | - | - | <0.5 µM |
| CC(C)(N)C(=O)O.[Na+] | NL4-3 | - | luciferase | - | 0.34 µM |
| CC(=O)c1ccc(C)cc1NC(C(N)=O)c1c(Cl)cccc1Cl | HXB2 | - | recombinant virus assay | - | 0.017 µM |
| Cc1cn([C@@H]2O[C@H](CO[Si](C)(C)C(C)(C)C)[C@@]3(OS(=O)(=O)C=C3N)[C@H]2O[Si](C)(C)C(C)(C)C)c(=O)[nH]c1=O | - | - | - | - | 0.05 µM |
| O=C(NCc1ccc(F)cc1)c1nc(N2CCCCS2(=O)=O)c2cccnc2c1O | - | INTG-N155S | p24 | - | 0.072 µM |
| CC(C)(C)OC(=O)N[C@@H](Cc1ccccc1)[C@H](O)CNC[C@@H](O)[C@H](Cc1ccc(OCC(=O)N2CCOCC2)cc1)NC(=O)OC(C)(C)C | RF | - | - | - | 0.097 µM |
| Cc1ccccc1Cc1cccc(C(=O)CC(=O)C(=O)O)c1 | HXB2 | - | p24 | - | 0.47 µM |
| CC(C)[C@H](N)C(=O)O.[Na+] | IIIB | - | luciferase | - | 0.56 µM |
| O=C1CCN(CCOc2ccc(Cl)cc2C(=O)c2cc(Cl)cc(Cl)c2)C(=O)N1 | - | - | RT activity | pseudotyped | 0.09 µM |
| Cc1cn([C@H]2C[C@H](N=[N+]=[N-])[C@@H](CO)O2)c(=O)[nH]c1=O | CC9 Clinical isolates | - | p24 | - | 0.01 µM |
| C[C@H](N)C(=O)O.[Na+] | NL4-3 | - | luciferase | - | 0.16 µM |
| Cc1c(C#N)cc(C(F)F)cc1Oc1c(C(F)(F)C(F)F)ncn(Cc2cc(F)c[nH]c2=O)c1=O | - | - | RT activity / fluorescence | - | 0.024 µM |
| Cc1cn([C@H]2C[C@H](N=[N+]=[N-])[C@@H](CO)O2)c(=O)[nH]c1=O | IIIB S0561945 | - | - | - | 0.003 µM |
| COc1ccccc1C(=O)Nc1ccc(Cl)c(C(=O)OC(C)C)c1 | - | - | - | - | 1.3 µM |
| c1cc(CN2CCCNCCNCCCNCC2)ccc1CN1CCCNCCNCCCNCC1 | NL4-3 | AMD3100-resistant | - | - | >1.3 µM |
| CC(C)=CCN1Cc2cccc3[nH]c(=O)n(c23)CC1C | - | - | - | - | 0.1 µM |

3 of the rows above, restated:

C[C@H](Cn1cnc2c(N)ncnc21)OCP(=O)(O)O ; strain or isolate: ETH2220 ; method: p24 / ELISA ; result: 0.72 µM
CC(C)C[C@H](N)C(=O)O.[Na+] ; strain or isolate: NL4-3 ; method: luciferase ; result: 0.22 µM
CC(C)(C)OC(=O)N[C@@H](Cc1ccccc1)[C@H](O)CNC[C@@H](O)[C@H](Cc1ccc(OCC(=O)N2CCOCC2)cc1)NC(=O)OC(C)(C)C ; strain or isolate: RF ; result: 0.097 µM